# Measurements published in PubChem BioAssay AID720554 (ICCB-Longwood Screening Facility, Harvard Medical School, 2013).
# The entries are a selection whose mix differs from that of the whole data set. Activity calls are given as the source filed them. No stated cut-off is given here; in the data, active means inhibition mostly above about 83% (no sharp cut-off); inactive means mostly below about 52%.
# System: acyl-homoserine lactone synthase BmaI1 (Burkholderia mallei ATCC 23344)
# Experiment: BmaI1 acyl-homoserine lactone synthase inhibition – biochemical, fluorescence intensity, with counterscreen (AID 720554)
# Settings: BmaI1 enzyme assay, active compounds read high, concentration not given here
row,SMILES,inhibition
1,O=P1(Nc2nncs2)C=C(c2ccccc2)SC(c2ccccc2)=C1,inactive: 17.5%
2,CCN1C(=O)N(c2ccccc2)P(=S)(OC)c2cc3c(cc21)OCCO3 (stereo not drawn),inactive: 24.5%
3,CCSP(=O)(c1ccccc1)c1ccccc1,inactive: 11.5%
